Results of unrelated studies side by side (data: NIAID ChemDB).

Shared fields: whole-cell or culture tests; species: HIV-1

ECn: concentration that inhibits the pathogen or its effect by n%.

| compound | cells | strain | conditions | mutations | read by | endpoint | value |
|---|---|---|---|---|---|---|---|
| CC(C)C1=C2[C@H]3CC[C@@H]4[C@@]5(C)CC[C@H](OC(=O)CC(C)(C)C(=O)O)C(C)(C)[C@@H]5CC[C@@]4(C)[C@]3(C)CC[C@@]2(NC(=O)C2CCCN2C)CC1=O | MT-2 | IIIB | 30% human serum | - | RT activity | EC50 | <0.199 µM |
| CN1CCn2c(nc(C(=O)NCc3ccc(F)c(Cl)c3)c(O)c2=O)C(N(C)C(=O)C(=O)N(C)C)C1 | MT-4 | - | - | - | p24 | EC50 | <1 µM |
| CC(C)C1=C2C3CCC4[C@@]5(C)CC[C@H](OC(=O)CC(C)(C)C(=O)O)C(C)(C)C5CC[C@@]4(C)[C@]3(C)CC[C@@]2(NC(=O)NCc2ccsc2)CC1=O | MT-2 | IIIB | 30% human serum | - | RT activity | EC50 | <0.199 µM |
| Cc1cc(CNC(=O)c2nc3n(c(=O)c2O)CCNCC3N(C)C(=O)C(=O)N(C)C)ccc1F | MT-4 | - | - | - | p24 | EC50 | <1 µM |
| Cc1cc(S(N)(=O)=O)ccc1NC(=O)COc1ccc(Cl)cc1C(=O)c1cc(F)cc(C#N)c1 | HeLa + HELA CD4+ | WTRVA | - | - | β-galactosidase | EC50 | <0.01 µM |
| Cc1ccc(OCCNc2ccc(-c3cnc(C)c([C@H](OC(C)(C)C)C(=O)O)c3N3CCC(C)(C)CC3)nc2)cc1C | MT-2 | NL4-3 | - | - | luminescence | EC50 | 0.0032 µM |
| CC1(C)c2nc(C(=O)NCc3ccc(F)cc3)c(O)c(=O)n2CCN1CCN1CCOCC1 | MT-4 | - | - | - | p24 | EC50 | <1 µM |
| CC1(C)CC=C(c2cn(-c3nccc(C(=O)NC4CCC(N5CC6CCC(C5)O6)CC4)n3)c3ccc(F)c([C@H](OC(C)(C)C)C(=O)O)c23)CC1 | MT-4 | NL4-3 | - | T174I | luminescence | EC50 | >2.228 µM |
| Cc1ncc(-c2ccc(OCCc3ccccn3)nc2)c(N2CCC(C)(C)CC2)c1[C@H](OC(C)(C)C)C(=O)O | MT-2 | NL4-3 | - | - | luminescence | EC50 | 0.0009 µM |
| Cc1ccc(C)n1-c1ccc(C(=O)O)c(O)c1 | PBMC/5.25M7 | 93IN101 R5 CLADE C | - | - | luciferase / cell fusion | EC90 | 37.51 µM |
| O=C(COc1ccc(Cl)cc1C(=O)c1ccccc1)Nc1ccc(-n2cncn2)cc1 | MT-4 | Nevirapine-resistant (RT Y181C) | - | RT-Y181C | cytopathic effect / propidium iodide | EC50 | 0.101–1 µM |
| CC(C)C1=C2C3CCC4[C@@]5(C)CC[C@H](OC(=O)CC(C)(C)C(=O)O)C(C)(C)C5CC[C@@]4(C)[C@]3(C)CC[C@@]2(NC(=O)O[C@@H]2CCN(C)C2)CC1=O | MT-2 | IIIB | 30% human serum | - | RT activity | EC50 | <0.199 µM |
| CC1(C)c2nc(C(=O)NCc3ccc(F)cc3)c(O)c(=O)n2CCN1Cc1ccccn1 | MT-4 | - | - | - | p24 | EC50 | <1 µM |
| CC(C)C1=C2C3CCC4[C@@]5(C)CC[C@H](OC(=O)CC(C)(C)C(=O)O)C(C)(C)C5CC[C@@]4(C)[C@]3(C)CC[C@@]2(NC(=O)NC(C)c2ccccn2)CC1=O | MT-2 | IIIB | 30% human serum | - | RT activity | EC50 | <0.199 µM |
| Cc1cc(C#N)cc(C(=O)c2cc(Cl)ccc2OCC(=O)Nc2cnc(S(N)(=O)=O)cc2C)c1 | HeLa + HELA CD4+ | HXB2 (RT-K103N Y181C) Recombinant | - | RT-K103N Y181C | β-galactosidase | EC50 | <0.01 µM |
| CCC(=O)c1ccc(F)c([C@@H]2C[C@@H]2NC(=O)Nc2ccc(C#N)cn2)c1O | TZM-bl | LAI | - | NNRTI-resistant (RT V179D) | β-galactosidase / luminescence | EC50 | 0.00073 µM |
| CN(C)CC(=O)N1CCn2c(nc(C(=O)NCc3ccc(F)cc3)c(O)c2=O)C1(C)C | MT-4 | - | - | - | p24 | EC95 | <1 µM |
| Cc1cc(OCCCS(N)(=O)=O)ccc1NC(=O)COc1ccc(Cl)cc1C(=O)c1cc(F)cc(C(F)(F)F)c1 | HeLa + HELA CD4+ | HXB2 | - | RT-K101E | β-galactosidase | EC50 | <0.01 µM |
| Cc1ncc(-c2ccc(OCCOc3cccc(C(=O)O)c3)cn2)c(N2CCC(C)(C)CC2)c1[C@H](OC(C)(C)C)C(=O)O | MT-2 | NL4-3 | - | - | luminescence | EC50 | 0.1202 µM |
| CC(C)[C@H](NC(=O)OCc1ccccn1)C(=O)N[C@@H](Cc1ccccc1)[C@@H](O)C[C@H](Cc1ccccc1)NC(=O)OCc1cccnc1 | MT-4 | NL4-3 | - | PR-M46I L63P V82T I84V | p24 | EC95 | 3 µM |
| CC(C)C1=C2C3CCC4[C@@]5(C)CC[C@H](OC(=O)CC(C)(C)C(=O)O)C(C)(C)C5CC[C@@]4(C)[C@]3(C)CC[C@@]2(NC(=O)N[C@@H](C)c2ccccc2)CC1=O | MT-2 | IIIB | 30% human serum | - | RT activity | EC50 | <0.199 µM |
| Cc1cc(S(N)(=O)=O)ccc1NC(=O)COc1ccc(Cl)cc1C(=O)c1cc(F)cc(C(F)(F)F)c1 | HeLa + HELA CD4+ | HXB2 | - | RT-K103N V108I | β-galactosidase | EC50 | <0.01 µM |
| CC(C)C1=C2C3CCC4[C@@]5(C)CC[C@H](OC(=O)CC(C)(C)C(=O)O)C(C)(C)C5CC[C@@]4(C)[C@]3(C)CC[C@@]2(NC(=O)N[C@H](C)C2CCCCC2)CC1=O | MT-2 | IIIB | 30% human serum | - | RT activity | EC50 | <0.199 µM |
| Cc1cc2cn[nH]c2cc1NC(=O)COc1ccc(Cl)cc1C(=O)c1cccc(C#N)c1 | HeLa + HELA CD4+ | HXB2 | - | RT-L100I | β-galactosidase | EC50 | <0.01 µM |
| Cc1ncc(-c2ccc(OC[C@@H]3CCOC3)cn2)c(N2CCC(C)(C)CC2)c1[C@H](OC(C)(C)C)C(=O)O | MT-2 | NL4-3 | - | - | luminescence | EC50 | 0.0013 µM |
| CCCc1cc(=O)oc2c3c(c4c(c12)OC(C)(C)CC4)O[C@@H](C)[C@H](C)[C@@H]3O | CEM + CEM-SS | NL4-3 | - | RT-V179D | XTT | EC50 | 0.4 µM |
| Cc1cc(S(N)(=O)=O)ccc1NC(=O)COc1ccc(Cl)cc1C(=O)c1cc(F)cc(F)c1 | MT-4 | Nevirapine-resistant (RT Y181C) | - | RT-Y181C | cytopathic effect / propidium iodide | EC50 | <0.01 µM |
| Cc1nc2ccccc2c(-c2cc(F)c3c(c2C)CCCO3)c1[C@H](OC(C)(C)C)C(=O)O | MT-4 | NL4-3 | - | E92Q | luminescence | EC50 | 0.017 µM |
| COP(=O)(c1cc(C)cc(CCC#N)c1)c1c(C(N)=O)[nH]c2ccc(Cl)c(F)c12 | MT-4 | NL4-3 | - | K103N | p24 / ELISA | EC50 | 0.0014 µM |
| Cn1nncc1CN1CCn2c(nc(C(=O)NCc3ccc(F)cc3)c(O)c2=O)C1(C)C | MT-4 | - | - | - | p24 | EC50 | <1 µM |
| Cc1cc(S(N)(=O)=O)ccc1NC(=O)COc1ccc(Cl)cc1C(=O)c1cccc(C#N)c1 | HeLa + HELA CD4+ | HXB2 | - | RT-K103N P225H | β-galactosidase | EC50 | <0.01 µM |
| CCc1nnc(C(=O)N[C@@]23CC[C@]4(C)C(CCC5[C@@]6(C)CC[C@H](OC(=O)CC(C)(C)C(=O)O)C(C)(C)C6CC[C@]54C)C2=C(C(C)C)C(=O)C3)o1 | MT-2 | IIIB | 30% human serum | - | RT activity | EC50 | <0.199 µM |
| Cc1cc(S(N)(=O)=O)ccc1NC(=O)COc1ccc(Cl)cc1C(=O)c1cccc(C#N)n1 | MT-4 | IIIB | - | - | cytopathic effect / propidium iodide | EC50 | <0.01 µM |
| Cc1ncc(-c2cnc(OCC3CC(C)C3)c(F)c2)c(N2CCC(C)(C)CC2)c1[C@H](OC(C)(C)C)C(=O)O | MT-2 | NL4-3 | - | - | luminescence | EC50 | 0.0049 µM |

The first 4 rows once more:

compound	cells	strain	conditions	mutations	read by	endpoint	value
CC(C)C1=C2[C@H]3CC[C@@H]4[C@@]5(C)CC[C@H](OC(=O)CC(C)(C)C(=O)O)C(C)(C)[C@@H]5CC[C@@]4(C)[C@]3(C)CC[C@@]2(NC(=O)C2CCCN2C)CC1=O	MT-2	IIIB	30% human serum	-	RT activity	EC50	<0.199 µM
CN1CCn2c(nc(C(=O)NCc3ccc(F)c(Cl)c3)c(O)c2=O)C(N(C)C(=O)C(=O)N(C)C)C1	MT-4	-	-	-	p24	EC50	<1 µM
CC(C)C1=C2C3CCC4[C@@]5(C)CC[C@H](OC(=O)CC(C)(C)C(=O)O)C(C)(C)C5CC[C@@]4(C)[C@]3(C)CC[C@@]2(NC(=O)NCc2ccsc2)CC1=O	MT-2	IIIB	30% human serum	-	RT activity	EC50	<0.199 µM
Cc1cc(CNC(=O)c2nc3n(c(=O)c2O)CCNCC3N(C)C(=O)C(=O)N(C)C)ccc1F	MT-4	-	-	-	p24	EC50	<1 µM

a–b is a range or a potency band. Conditions beyond the fields shown may differ between rows. Blank or dashed fields: not listed here.